Measured values from several laboratories, pooled; numbers as filed in NIAID ChemDB.

Common to all: whole-cell or culture tests; species: HIV-2; method: syncytia; endpoint: EC50

Lines come from different laboratories, so protocols vary. ECn is the concentration giving n% inhibition of infection, replication or growth.

Cc1ccc[n+]([O-])c1S(=O)(=O)Cc1ccccc1 ; cell line: CEM ; strain or isolate: ROD ; result: >20 µg/mL
Cc1cc(C)c(CS(=O)c2cccc[n+]2[O-])c(C)c1 ; cell line: CEM ; strain or isolate: EHO ; result: 2.1 µg/mL
Cc1ccccc1C(C(N)=O)S(=O)c1cccc[n+]1[O-] ; cell line: CEM ; strain or isolate: ROD ; result: >100 µg/mL
CCc1nc([N+](=O)[O-])c(N2CCN(C(=O)c3ccc(OC)cc3)CC2)n1Cc1ccccc1 ; cell line: MT-4 ; strain or isolate: ROD ; result: >71.8 µg/mL
Cc1ccc(C)c(C(C)S(=O)(=O)c2ccc(C)c[n+]2[O-])c1 ; cell line: CEM ; strain or isolate: EHO ; result: >100 µg/mL
CCCCCCC(=O)Oc1ccc(COP(=O)(OCc2ccc(OC(=O)CCCCCC)cc2)OP(=O)([O-])OC[C@@H]2CC[C@H](n3ccc(=O)[nH]c3=O)O2)cc1 ; cell line: CEM ; strain or isolate: ROD ; result: 30 µM
COC(=O)[C@H](C)NP(=O)(OC[C@@H]1C=C[C@H](n2cnc3c(NC4CC4)nc(N)nc32)C1)Oc1ccccc1 ; cell line: CEM ; strain or isolate: ROD ; result: 0.07 µM
COc1cc(CS(=O)(=O)c2cccc[n+]2[O-])cc(OC)c1OC ; cell line: CEM ; strain or isolate: ROD ; result: ≥20 µg/mL
CCc1nc([N+](=O)[O-])c(N2CCN(C(=O)c3ccc([N+](=O)[O-])cc3)CC2)n1Cc1ccccc1 ; cell line: MT-4 ; strain or isolate: ROD ; result: >86 µg/mL
Cc1ccc(C)c(CS(=O)(=O)c2cccc[n+]2[O-])c1 ; cell line: CEM ; strain or isolate: ROD ; result: 10 µg/mL
CCCCCCCCCCCC(=O)Oc1ccc(COP(=O)(OCc2ccc(OC(=O)CCCCCCCCCCC)cc2)OP(=O)([O-])OC[C@@H]2C=C[C@H](n3ccc(=O)[nH]c3=O)O2)cc1 ; cell line: CEM/TK- ; strain or isolate: ROD ; result: >50 µM
COc1ccc(OC)c(CS(=O)c2cccc[n+]2[O-])c1 ; cell line: CEM ; strain or isolate: ROD ; result: >100 µg/mL
CCCCCCCCCCCC(=O)Oc1ccc(COP(=O)(OCc2ccc(OC(=O)CCCC)cc2)OP(=O)(O)OCC2C=C[C@H](n3cc(C)c(=O)[nH]c3=O)O2)cc1 ; cell line: CEM ; strain or isolate: ROD ; result: 1.05 µM
CC(c1ccc(S(C)(=O)=O)cc1)S(=O)c1cccc[n+]1[O-] ; cell line: CEM ; strain or isolate: ROD ; result: >4 µg/mL
Cc1ccc(C)c(CS(=O)c2ccc(Cl)c[n+]2[O-])c1 ; cell line: CEM ; strain or isolate: ROD ; result: 2 µg/mL
CCc1nc([N+](=O)[O-])c(N2CCN(C(C)=O)CC2)n1Cc1ccccc1 ; cell line: MT-4 ; strain or isolate: ROD ; result: >63.1 µg/mL
Cc1ccc(C)c(C(C)S(=O)(=O)c2c(C)ccc[n+]2[O-])c1 ; cell line: CEM ; strain or isolate: EHO ; result: >20 µg/mL
Cc1ccc(C)c(CS(=O)(=O)c2cccc[n+]2[O-])c1 ; cell line: CEM ; strain or isolate: EHO ; result: 14 µg/mL
O=C(c1cccc([N+](=O)[O-])c1)c1ccc2[nH]c(=O)sc2c1 ; cell line: CEM ; strain or isolate: ROD ; result: >1.6 µg/mL
Cc1ccc(C(C)S(=O)(=O)c2c(C)ccc[n+]2[O-])c(C)c1 ; cell line: CEM ; strain or isolate: EHO ; result: >100 µg/mL
CCc1nc([N+](=O)[O-])c(N2CCN(C(=O)CS(=O)(=O)c3cccc4ccccc34)CC2)n1Cc1ccccc1 ; cell line: MT-4 ; strain or isolate: ROD ; result: >14.5 µg/mL
O=[N+]([O-])c1ccc(CS(=O)(=O)c2cccc[n+]2[O-])cc1 ; cell line: CEM ; strain or isolate: ROD ; result: >4 µg/mL
O=c1ccn([C@H]2CC[C@@H](CO)O2)c(=O)[nH]1 ; cell line: CEM/TK- ; strain or isolate: ROD ; result: >250 µM
COC(=O)[C@H](C)NP(=O)(OC[C@@H]1C=C[C@H](n2cnc3c(=O)[nH]c(N)nc32)C1)Oc1ccccc1 ; cell line: CEM ; strain or isolate: ROD ; result: 0.85 µM
CCCC(Sc1cccc[n+]1[O-])c1cc(C)ccc1C ; cell line: CEM ; strain or isolate: ROD ; result: >4 µg/mL
CCCCC(=O)Oc1ccc(COP(=O)(OCc2ccc(OC(=O)c3ccc(C(F)(F)F)cc3)cc2)OP(=O)(O)OCC2C=C[C@H](n3cc(C)c(=O)[nH]c3=O)O2)cc1 ; cell line: CEM ; strain or isolate: ROD ; result: 1.05 µM
Cc1ccc(C)c(CS(=O)(=O)c2ccccn2)c1 ; cell line: CEM ; strain or isolate: ROD ; result: >20 µg/mL
CCc1nc([N+](=O)[O-])c(N2CCN(C(=O)CSCc3ccc(Cl)cc3)CC2)n1Cc1ccccc1 ; cell line: MT-4 ; strain or isolate: ROD ; result: >5.81 µg/mL
Cc1ccc(C)c(C(Cl)S(=O)(=O)c2c(C)ccc[n+]2[O-])c1 ; cell line: CEM ; strain or isolate: ROD ; result: >100 µg/mL
CCC(=O)c1ccc2c(c1)sc(=O)n2CCN1CCCCC1 ; cell line: CEM ; strain or isolate: ROD ; result: >40 µg/mL
COC(=O)C(c1ccccc1C)S(=O)c1cccc[n+]1[O-] ; cell line: CEM ; strain or isolate: ROD ; result: >20 µg/mL
Cn1c(=O)sc2cc(C(=O)c3cccc(F)c3)ccc21 ; cell line: CEM ; strain or isolate: ROD ; result: >40 µg/mL
N#C/C(=C/c1ccc(Cl)cc1Cl)Sc1cccc[n+]1[O-] ; cell line: CEM ; strain or isolate: ROD ; result: >0.8 µg/mL
O=C(c1cccc(Br)c1)c1ccc2[nH]c(=O)sc2c1 ; cell line: CEM ; strain or isolate: ROD ; result: 8 µg/mL
CCOC(=O)CSCC(=O)N1CCN(c2c([N+](=O)[O-])nc(CC)n2Cc2ccccc2)CC1 ; cell line: MT-4 ; strain or isolate: ROD ; result: >10.64 µg/mL
Cc1ccc(C)c(C(Cl)S(=O)(=O)c2cc(C)cc[n+]2[O-])c1 ; cell line: CEM ; strain or isolate: ROD ; result: >4 µg/mL
O=C(c1ccccc1)c1ccc2c(c1)oc(=O)n2Cc1ccccc1 ; cell line: CEM ; strain or isolate: ROD ; result: >40 µg/mL
Cc1ccc(C)c(C(Sc2cccc[n+]2[O-])c2ccccc2)c1 ; cell line: CEM ; strain or isolate: ROD ; result: >20 µg/mL
CCc1nc([N+](=O)[O-])c(N2CCN(C(=O)CCC(N)=O)CC2)n1Cc1ccccc1 ; cell line: MT-4 ; strain or isolate: ROD ; result: >93.7 µg/mL
CCCCCCC(=O)Oc1ccc(COP(=O)(OCc2ccc(OC(=O)CCCCCC)cc2)OP(=O)([O-])OC[C@@H]2C=C[C@H](n3ccc(=O)[nH]c3=O)O2)cc1 ; cell line: CEM/TK- ; strain or isolate: ROD ; result: 24 µM
COc1ccc(C)cc1CS(=O)(=O)c1cccc[n+]1[O-] ; cell line: CEM ; strain or isolate: ROD ; result: 40 µg/mL
CC(=O)Oc1ccc(COP(=O)(OCc2ccc(OC(=O)c3ccc(C(F)(F)F)cc3)cc2)OP(=O)(O)OCC2C=C[C@H](n3cc(C)c(=O)[nH]c3=O)O2)cc1 ; cell line: CEM/TK- ; strain or isolate: ROD ; result: 6.31 µM
O=C(c1ccc(Cl)c(Cl)c1)c1ccc2[nH]c(=O)sc2c1 ; cell line: CEM ; strain or isolate: ROD ; result: >1.6 µg/mL
CCCCCCCCCCCC(Sc1cccc[n+]1[O-])c1cc(C)ccc1C ; cell line: CEM ; strain or isolate: ROD ; result: >4 µg/mL

The last 6 rows once more:

| structure | cell line | strain or isolate | result |
|---|---|---|---|
| CCc1nc([N+](=O)[O-])c(N2CCN(C(=O)CCC(N)=O)CC2)n1Cc1ccccc1 | MT-4 | ROD | >93.7 µg/mL |
| CCCCCCC(=O)Oc1ccc(COP(=O)(OCc2ccc(OC(=O)CCCCCC)cc2)OP(=O)([O-])OC[C@@H]2C=C[C@H](n3ccc(=O)[nH]c3=O)O2)cc1 | CEM/TK- | ROD | 24 µM |
| COc1ccc(C)cc1CS(=O)(=O)c1cccc[n+]1[O-] | CEM | ROD | 40 µg/mL |
| CC(=O)Oc1ccc(COP(=O)(OCc2ccc(OC(=O)c3ccc(C(F)(F)F)cc3)cc2)OP(=O)(O)OCC2C=C[C@H](n3cc(C)c(=O)[nH]c3=O)O2)cc1 | CEM/TK- | ROD | 6.31 µM |
| O=C(c1ccc(Cl)c(Cl)c1)c1ccc2[nH]c(=O)sc2c1 | CEM | ROD | >1.6 µg/mL |
| CCCCCCCCCCCC(Sc1cccc[n+]1[O-])c1cc(C)ccc1C | CEM | ROD | >4 µg/mL |